In PubChem BioAssay AID1621 (Southern Research Specialized Biocontainment Screening …, 2009):
This is one part of the list. Entries with a potency or affinity are not part of this list. Calls of active or inactive are those of the source. How the calls were made is not given here.

Assay: inhibition of WNV-induced cytopathic effect – cell-based, CPE readout (AID 1621)
Conditions: West Nile virus-infected cells, at 10 µM, active compounds read high
With `CC1CCC(C(C)C)C(OP(=O)(Nc2ccccn2)c2ccccc2)C1` (stereo unspecified) the CPE inhibition was inactive: -0.83%.
With `Cc1ccc(C(=O)OC2CN3CCC2CC3)cc1` (stereo unspecified) the CPE inhibition was inactive: -0.2%.
For `Cc1nn(-c2ccccc2)c2c1P(=O)(N1CCOCC1)N(C)C(c1ccccc1)=N2` (stereo unspecified), the CPE inhibition was inactive: -0.26%.
In the case of `CN(C)C1(CNC(=O)c2ccc(S(C)(=O)=O)cc2)CCCCC1`, the CPE inhibition is reported as inactive: -0.71%.
With `O=C(/C=C/c1ccccc1)OC1CN2CCC1CC2` (stereo unspecified) the CPE inhibition was inactive: 0.78%.
In the case of `O=P1(Nc2ncccn2)COc2ccccc2OC1`, the CPE inhibition is reported as inactive: -0.25%.
With `Nc1cccc([As](=O)(O)c2ccccc2)c1` the CPE inhibition was inactive: 0.78%.
For `O=P1(Nc2ccc(Br)cn2)COc2ccccc2OC1`, the CPE inhibition was inactive: 0.27%.
In the case of `O=[As](O)(c1cccs1)c1cccs1`, the CPE inhibition is reported as inactive: 0.72%.
With `Cc1ccc(OCC(=O)OC2CN3CCC2CC3)cc1` (stereo unspecified) the CPE inhibition was inactive: 0.41%.
With `CCOP(=O)(NC(=NC(C)c1ccccc1)NC(C)c1ccccc1)OCC` (stereo unspecified) the CPE inhibition was inactive: -1.35%.
For `O=P1(Nc2ccccn2)COc2ccccc2OC1`, the CPE inhibition was inactive: 0%.
In the case of `CCC1=CC2Cc3nc4ccc(Cl)cc4c(N)c3C(C1)C2` (stereo unspecified), the CPE inhibition is reported as inactive: 13.6%.
In the case of `CN(CCCl)Cc1cc(Cl)c(NC2=NCCN2)c(Cl)c1`, the CPE inhibition is reported as inactive: -0.84%.
With `CCOP(=O)(Nc1ccc(C)cn1)OCC` the CPE inhibition was inactive: 0.06%.
In the case of `CC(C)(C)C(=O)NC(Sc1ncccn1)C(Cl)(Cl)Cl` (stereo unspecified), the CPE inhibition is reported as inactive: -0.04%.
With `Clc1n[nH]nc1-c1nn[nH][15n]1` the CPE inhibition was inactive: 0.46%.
In the case of `CC(C)/C=N\N=C(\N)N[N+](=O)[O-]`, the CPE inhibition is reported as inactive: 0.5%.
For `CN(C(=O)Cc1ccc(Cl)c(Cl)c1)[C@@H]1CCCC[C@H]1N1CCCC1`, the CPE inhibition was inactive: 1.85%.
With `CC1(CBr)Cn2c(nc3ccccc3c2=O)S1` (stereo unspecified) the CPE inhibition was inactive: -0.26%.
For `O=[As](O)(c1ccccc1Br)c1ccccc1Br`, the CPE inhibition was inactive: 0.17%.
With `O=C(OC1CN2CCC1CC2)c1ccc(Cl)cc1` (stereo unspecified) the CPE inhibition was inactive: 0.58%.
With `CS(=O)(=O)c1ccc(Cl)c(NC(=O)COC(=O)C(O)(c2ccccc2)c2ccccc2)c1` the CPE inhibition was inactive: -0.28%.
With `COc1cc(C(=O)NCC2(N3CCOCC3)CCCCC2)cc(Cl)c1OC(C)C` the CPE inhibition was inactive: -1.46%.
For `O=[As](O)(O)c1cccnc1`, the CPE inhibition was inactive: 0.14%.
In the case of `O=[As](O)(c1cccc(O)c1)c1cccc(O)c1`, the CPE inhibition is reported as inactive: 0.27%.
For `Cc1cccc(OCC(=O)OC2CN3CCC2CC3)c1` (stereo unspecified), the CPE inhibition was inactive: 0.31%.
In the case of `Nc1cccc2c([As](=O)(O)O)cccc12`, the CPE inhibition is reported as inactive: -0.2%.
For `Cc1ccc(NCCc2c([N+](=O)[O-])cc([N+](=O)[O-])cc2[N+](=O)[O-])cc1`, the CPE inhibition was inactive: -1.21%.
With `CCCOP(=S)(Nc1nc(N)cc(=O)[nH]1)OCCC` the CPE inhibition was inactive: 1.36%.
For `CCOP(=O)(Nc1cccc2ccccc12)OCC`, the CPE inhibition was inactive: 0%.
For `COc1cc(C2NCCC3(OCCO3)C2(C)C)cc(OC)c1OC` (stereo unspecified), the CPE inhibition was inactive: -1.15%.
With `O=P(Nc1nccs1)(c1ccccc1)c1nc2ccccc2s1` (stereo unspecified) the CPE inhibition was inactive: -0.19%.
With `O=P(Nc1nccs1)(Oc1ccccc1)Oc1ccccc1` the CPE inhibition was inactive: 0.95%.
In the case of `CCOP1(=S)c2c(C)nn(CCC#N)c2N=C(c2ccccc2F)N1C` (stereo unspecified), the CPE inhibition is reported as inactive: -0.48%.
In the case of `CS(=O)(=O)c1cc([N+](=O)[O-])c2no[n+]([O-])c2c1`, the CPE inhibition is reported as inactive: 0.82%.
In the case of `Nc1ccccc1[As](=O)(O)c1ccccc1`, the CPE inhibition is reported as inactive: 0.35%.
In the case of `O=C(O)COc1ccc([As](=O)(O)O)cc1[N+](=O)[O-]`, the CPE inhibition is reported as inactive: 0.13%.
For `NC(=O)Nc1ccc([As](=O)(O)O)cc1`, the CPE inhibition was inactive: 0.55%.
With `CN(C(=O)Cc1ccccc1)[C@@H]1CC[C@]2(CCCO2)C[C@H]1N1CCCC1` the CPE inhibition was inactive: 0.31%.
With `CCOP1(=S)c2c(C)nn(CCC#N)c2N=C(c2ccc(F)cc2)N1C` (stereo unspecified) the CPE inhibition was inactive: -0.8%.
For `CN(C(=O)Cc1ccc(Cl)c(Cl)c1)[C@H]1CC[C@@]2(CCCO2)C[C@@H]1N1CCCC1`, the CPE inhibition was inactive: 0.75%.
For `O=[N+]([O-])c1ccc2c(c1)nnn2O`, the CPE inhibition was inactive: 0%.
For `C[As](=O)(O)c1cccc(C(=O)O)c1`, the CPE inhibition was inactive: -0.2%.
For `O=[As](O)(c1ccc(O)cc1)c1ccccc1O`, the CPE inhibition was inactive: 0.43%.
With `Cc1ccc(OP(=O)(Nc2ccc([N+](=O)[O-])cn2)Oc2ccc(C)cc2)cc1` the CPE inhibition was inactive: -0.39%.
In the case of `Cc1ccc2nc3c(c(C)c2c1)CC(C(Cl)Cl)S3` (stereo unspecified), the CPE inhibition is reported as inactive: -0.92%.
In the case of `ClCCSc1nnc(-c2cccnc2)o1`, the CPE inhibition is reported as inactive: 0.1%.
In the case of `CC(C)c1ccc(OP(=O)(Nc2ccccn2)Oc2ccccc2F)cc1` (stereo unspecified), the CPE inhibition is reported as inactive: 0.03%.
In the case of `O=[N+]([O-])c1cc([N+](=O)[O-])c(-c2ccn[nH]2)s1`, the CPE inhibition is reported as inactive: -0.47%.
In the case of `CCN(CC)C(=S)SC(NC=O)C(Cl)(Cl)Cl` (stereo unspecified), the CPE inhibition is reported as inactive: 0%.
In the case of `CC(C)NC(=O)NP(=O)(Oc1ccccc1)Oc1ccccc1`, the CPE inhibition is reported as inactive: 0.83%.
For `Cc1c2c(nc3ccccc13)SC(C(Cl)Cl)C2` (stereo unspecified), the CPE inhibition was inactive: -0.86%.
With `Cc1cc(=O)[nH]c(N[N+](=O)[O-])n1` the CPE inhibition was inactive: 0.29%.
For `O=C(OC1CN2CCC1CC2)C12CC3CC(CC(C3)C1)C2` (stereo unspecified), the CPE inhibition was inactive: -0.94%.
With `COc1cc(I)ccc1[As](=O)(O)O` the CPE inhibition was inactive: -0.36%.
In the case of `COc1ccc2nc(NP(=O)(c3ccccc3)c3ccccc3)sc2c1`, the CPE inhibition is reported as inactive: -0.85%.
With `COc1ccc(N/C(=N/P(=O)(N2CCOCC2)N2CCOCC2)N2CCOCC2)cc1` the CPE inhibition was inactive: 0.06%.
With `COP1(=S)c2c(C)nn(CCC#N)c2N=C(c2ccc(F)cc2)N1C` (stereo unspecified) the CPE inhibition was inactive: -0.65%.
For `O=C(Nc1ccncc1[N+](=O)[O-])c1ccc([N+](=O)[O-])cc1[N+](=O)[O-]`, the CPE inhibition was inactive: -0.37%.
In the case of `O=C(OC1CN2CCC1CC2)c1cccc([N+](=O)[O-])c1` (stereo unspecified), the CPE inhibition is reported as inactive: -0.31%.
For `CCOC(=O)c1ccc(NC(=O)C(C)(CCl)SC)cc1` (stereo unspecified), the CPE inhibition was inactive: 0.26%.
For `CCC(C)N(CC(C)C)C(=S)SC(NC(C)=O)C(Cl)(Cl)Cl` (stereo unspecified), the CPE inhibition was inactive: -0.2%.
For `CCOC(=O)Nc1ccc([As](=O)(O)O)c(O)c1`, the CPE inhibition was inactive: -0.07%.
For `Cc1cc(SC(NC(=O)c2ccccc2)C(Cl)(Cl)Cl)nc(C(C)C)n1` (stereo unspecified), the CPE inhibition was inactive: -0.68%.
For `CCCCOc1ccc(C(=O)NCC2(N3CCCCC3)CCCCC2)cc1OC`, the CPE inhibition was inactive: -0.14%.
